Compound potency records, mixed from different reports. Data source: NIAID ChemDB in PubChem.

Shared fields: growth or infection tests; agent: Aspergillus flavus; measure: MIC

a–b is a range or a potency band. Conditions beyond the fields shown may differ between rows. Blank or dashed fields: not listed here.

| SMILES | strain or isolate | result |
|---|---|---|
| O=C(CN1CCOCC1)Nc1nc(-c2ccccc2)cc(-c2ccc(F)cc2)n1 | - | 6.25 µg/mL |
| CCC(C)n1ncn(-c2ccc(N3CCN(c4ccc(OC[C@H]5CO[C@](Cn6cncn6)(c6ccc(Cl)cc6Cl)O5)cc4)CC3)cc2)c1=O | NCIM 524 | <6.25 µg/mL |
| C=C1CO[C@H]2[C@@H](C)OC(OC[C@@]34C[C@H]5[C@H](C)CC[C@@H]5[C@@]5(C=O)C[C@@H]3C=C(C(C)C)[C@@]45C(=O)O)C[C@@H]12 | - | 2–8 µg/mL |
| CCOC(=O)C1/C(=N/Nc2ccc([N+](=O)[O-])cc2[N+](=O)[O-])C=C(c2ccc3ccccc3c2)CC1c1ccc(Cl)cc1 | Clinical isolates | 12.5 µg/mL |
| Cc1ccc(N=Nc2c(-c3c(O)c4ccccc4n(C)c3=O)[nH][nH]c2=O)cc1 | ATCC 28542 | >100 µg/mL |
| O=C1CCC(c2ccc(Cl)cc2)=NN1Cc1n[nH]c(=S)n1-c1ccc(Cl)cc1 | - | 4 µg/mL |
| Cn1c(=O)c(-c2[nH][nH]c(=O)c2C=Nc2ccc(Cl)cc2)c(O)c2ccccc21 | ATCC 28542 | 25 µg/mL |
| COC(=O)Cc1csc(NC(=O)Cc2ccc(C)cc2)n1 | NCIM 524 | 6.25 µg/mL |
| Cc1c(N=Cc2c[nH]c3ccccc23)c(=O)n(-c2ccccc2)n1C | - | 256 µM |
| CCCCCCCCOC(=O)[C@]1(O)C[C@@H](O)[C@@H](O)[C@H](OC(=O)/C=C/c2ccc(O)c(O)c2)C1 | AMP 9 | 500 µg/mL |
| CC(C)C1C(=O)CC(c2ccccc2)N(C(=O)CCl)C1c1ccccc1 | - | >200 µg/mL |
| C[C@@H](c1ncncc1F)[C@](O)(Cn1cncn1)c1ccc(F)cc1F | IAM 13835 | 0.39 µg/mL |
| C[C@H]1[C@H](O)[C@@H](C)/C=C/C=C/C=C/C=C/C=C/C=C/C=C/[C@H](O[C@@H]2O[C@H](C)[C@@H](O)[C@H](N)[C@@H]2O)C[C@@H]2O[C@](O)(C[C@@H](O)C[C@@H](O)CC[C@H](O)[C@@H](O)C[C@@H](O)CC(=O)O[C@H]1C)C[C@H](O)[C@H]2C(=O)O | - | 8 µg/mL |
| CN1C(=O)/C(=c2/[nH][nH]c(=O)/c2=C\c2ccccc2)C(=O)c2ccccc21 | ATCC 28542 | 50 µg/mL |
| COC(=O)Cc1csc(NC(=O)Cc2cccc(C)c2)n1 | NCIM 524 | 12.5 µg/mL |
| CN1C(=O)/C(=c2/[nH][nH]c(=O)/c2=C\c2ccccn2)C(=O)c2ccccc21 | ATCC 28542 | >100 µg/mL |
| Cc1cc(=O)oc2cc(OCC(O)Cn3cnc4ccccc43)cc(OCC(O)Cn3cnc4ccccc43)c12 | - | 512 µg/mL |
| Cc1csc(NC(=O)Cc2ccccc2)n1 | NCIM 524 | 6.25 µg/mL |
| CCOC(=O)C1/C(=N/Nc2ccc([N+](=O)[O-])cc2[N+](=O)[O-])C=C(c2ccc3ccccc3c2)CC1c1ccc(F)cc1 | Clinical isolates | 6.25 µg/mL |
| Nc1ccc(O)c2ncccc12 | KCCM 11899 | 0.8 µg/mL |
| C[C@H]1[C@H](O)[C@@H](C)/C=C/C=C/C=C/C=C/C=C/C=C/C=C/[C@H](O[C@@H]2O[C@H](C)[C@@H](O)[C@H](N)[C@@H]2O)C[C@@H]2O[C@](O)(C[C@@H](O)C[C@@H](O)CC[C@H](O)[C@@H](O)C[C@@H](O)CC(=O)O[C@H]1C)C[C@H](O)[C@H]2C(=O)O | - | 20 µg/mL |
| Cn1c(=O)c(-c2[nH][nH]c(=O)c2N=Nc2ccccc2)c(O)c2ccccc21 | ATCC 28542 | >100 µg/mL |
| O=C1CCC(c2ccccc2)=NN1Cc1n[nH]c(=S)n1-c1ccccc1 | - | 5 µg/mL |
| Cc1ccc(/C=c2/sc3n(c2=O)C(N)=C(CN)C(c2ccc(C)o2)C=3CN)o1 | - | 25 µg/mL |
| Cc1ccc(C2=NN(Cc3n[nH]c(=S)n3-c3ccc(Br)cc3)C(=O)CC2)cc1 | - | 7 µg/mL |
| OC(Cn1cncn1)(Cn1cncn1)c1ccc(F)cc1F | - | 0.097 µg/mL |
| Cc1ccc(CC(=O)Nc2nc(-c3cccc(F)c3)cs2)cc1 | NCIM 524 | 6.25 µg/mL |
| Cn1c(=O)c(-c2[nH][nH]c(=O)c2/C=N/c2cscn2)c(O)c2ccccc21 | ATCC 28542 | 25 µg/mL |
| OC(Cn1cncn1)(Cn1cncn1)c1ccc(F)cc1F | MTCC 1883 | 10 µg/mL |
| O=C(O)c1ccccc1 | - | >10 µg/mL |
| CCOC(=O)C1/C(=N/Nc2ccc([N+](=O)[O-])cc2[N+](=O)[O-])C=C(c2ccc3ccccc3c2)CC1c1ccc(Br)cc1 | Clinical isolates | 6.25 µg/mL |
| CCC(C)CC(C)CCCCCCCCC(=O)N[C@H]1C[C@@H](O)[C@H](NCCN)NC(=O)[C@@H]2[C@@H](O)CCN2C(=O)[C@H]([C@H](O)CCN)NC(=O)[C@H]([C@H](O)[C@@H](O)c2ccc(O)cc2)NC(=O)[C@@H]2C[C@@H](O)CN2C(=O)[C@H]([C@@H](C)O)NC1=O | - | 0.09–3.12 µg/mL |
| Cc1cc2ncn(CC(O)COc3cc(OCC(O)Cn4cnc5cc(C)c(C)cc54)c4c(C)cc(=O)oc4c3)c2cc1C | - | 64 µg/mL |
| O=C1CCC(c2ccccc2)=NN1Cc1n[nH]c(=S)n1-c1ccc(Br)cc1 | - | 5 µg/mL |

Repeating the final 2 entries:

SMILES,strain or isolate,result
Cc1cc2ncn(CC(O)COc3cc(OCC(O)Cn4cnc5cc(C)c(C)cc54)c4c(C)cc(=O)oc4c3)c2cc1C,-,64 µg/mL
O=C1CCC(c2ccccc2)=NN1Cc1n[nH]c(=S)n1-c1ccc(Br)cc1,-,5 µg/mL